# Results as given in article PMC5101508, “Molecular basis for epitope recognition by non-neutralizing anti-gp41 antibody F240” (Scientific Reports, 2016).
# B1: monoclonal antibody N5-i5 (antibody, V domains shown)
# VH: EVQLVESGGGLVQPGGSLRLSCAASGFTFSTYAMSWVRQAPGKGLEWVSSINNSGRNTFSADSVKGRFTISRDNSKNTLFLVMNSLRAEDTAVYYCAKDLRLGGGSDYWGQGTLVTVSS
# VL: QSALTQPASVSGSPGQSITISCTGTSSDVGSYNFVSWYQQHPGKAPKLMIYEVSERPSGISNRFSGSKSGNTASLTISGLQAEDEADYYCSSYAGSTTFRVFGGGTKLTVR
# What was measured:
# [1] = molecular target: HIV-1 envelope glycoprotein (gp120/gp41) (HIV-1 clade B, BaL (infectious …, UniProt Q78225, strain)); experiment: flow cytometry on cells; EGFP-CEM-NKr-CCR5-SNAP cells 5 days after infection with IMC BaL; Alexa Fluor-647 labelled mAbs; gate p24+low/CD4+; settings: one partner purified
# [2] = molecular target: HIV-1 BaL envelope glycoprotein (Env, gp120/gp41) on AT-2-inactivated virions (HIV-1 clade B, BaL (env clone of the …, UniProt Q78225, strain)); experiment: flow cytometry on cells; settings: one partner purified
binder,measurement,setting,value
B1,binding result,[1],binds
same,binding result,[2],binds
